Assay results taken from US9907812B2, “Conjugate-based antifungal and antibacterial prodrugs” (VYOME BIOSCIENCES PVT. LTD., priority 2011, dated 2018).

tested on: Malassezia furfur (MTCC 1374); format: cell-based

Ketoconazole-1-ethylene-laureate [KEL] and Ketoconazole-1-ethylene-myristate [KEM] fall in the same range of MIC: 1.88 to 3.7 µM for the first, 1.88 to 3.7 µM for the second.

Ketoconazole-1-ethylene-oleate [KEO] and “Ketoconazole-1-ethylene-oleylcarbonate [KCO]” cannot be ordered by MIC: 1.88 to 3.7 µM for the first, 1.88 µM for the second.

Ketoconazole-1-ethylene-palmitate [KEP] and “Ketoconazole-1-ethylene-undecylenate [KEU]” cannot be ordered by MIC: 3.7 to 7.5 µM for the first, 1.88 to 7.5 µM for the second.

Compared with Ketoconazole-ethylene-caprylate [KEC], “Ketoconazole-oleyl-triethyleneglycerylcarbonate” is higher in MIC: 1.88 µM for the first, 7.5 to 15 µM for the second.

For “[Di-(ketoconazole-1-ethylene)]-triethyleneglyceryl-dicarbonate”, the MIC was 0.94 to 3.7 µM.
